Anti-infective test results gathered from many reports (values: NIAID ChemDB through PubChem).

Shared fields: whole-cell or culture tests; agent: Mycobacterium avium intracellulare; endpoint: MIC

Conditions beyond the fields shown may differ between rows.

CC1(C)S[C@@H]2[C@H](NC(=O)[C@H](C(=O)[O-])c3ccsc3)C(=O)N2[C@H]1C(=O)[O-].[Na+].[Na+] ; strain or isolate: CIPT 140310034 ; result: 25 µg/mL
CO[C@H]1/C=C/O[C@@]2(C)Oc3c(C)c(O)c4c(O)c(c5c(c4c3C2=O)NC2(CCN(CC(C)C)CC2)N=5)=NC(=O)/C(C)=C\C=C\[C@H](C)[C@H](O)[C@@H](C)[C@@H](O)[C@@H](C)[C@H](OC(C)=O)[C@@H]1C ; strain or isolate: N-486 (HIV-) ; result: 0.4 µg/mL
CC[C@H]1OC(=O)[C@H](C)[C@@H](OC2C[C@@](C)(OC)[C@@H](O)[C@H](C)O2)[C@H](C)[C@@H](O[C@@H]2O[C@H](C)C[C@H](N(C)C)[C@H]2O)C(C)(O)C[C@@H](C)/C(=N\OCCCCc2ccccc2)[C@H](C)[C@@H](O)[C@]1(C)O ; strain or isolate: 20066 (clarithromycin-susceptible) ; result: 1.56 µg/mL
CO[C@H]1/C=C/O[C@@]2(C)Oc3c(C)c(O)c4c(=O)c(c5oc6cc(N7CCN(CC(C)C)CC7)cc(=O)c6nc5c4c3=C2O)NC(=O)/C(C)=C\C=C\[C@H](C)[C@H](O)[C@@H](C)[C@@H](O)[C@@H](C)[C@H](OC(C)=O)[C@@H]1C ; strain or isolate: N-919 (HIV-) ; result: ≤0.0125 µg/mL
CCCCCCCCNC(=O)O[C@H]1C(O[C@@H]2[C@@H](C)[C@H](O[C@H]3C[C@@](C)(OC)[C@@H](OC(C)=O)[C@H](C)O3)[C@@H](C)C(=O)O[C@H](CC)[C@@](C)(O)[C@H](O)[C@@H](C)/C(=N/OCCCC3CCCCC3)[C@H](C)CC2(C)O)O[C@H](C)C[C@@H]1N(C)C ; strain or isolate: 20075 ; result: 0.39 µg/mL
CO[C@H]1/C=C/O[C@@]2(C)Oc3c(C)c(O)c4c(O)c(c5c(c4c3C2=O)NC2(CCN(CC(C)C)CC2)N=5)=NC(=O)/C(C)=C\C=C\[C@H](C)[C@H](O)[C@@H](C)[C@@H](O)[C@@H](C)[C@H](OC(C)=O)[C@@H]1C ; strain or isolate: CIPT 140310034 ; result: 0.05 µg/mL
CCCCCCC(=O)O[C@H]1[C@H](C)OC(O[C@H]2[C@H](C)[C@@H](O[C@@H]3O[C@H](C)C[C@H](N(C)C)[C@H]3O)C(C)(O)C[C@@H](C)/C(=N\OCCCOc3ccccc3)[C@H](C)[C@@H](O)[C@](C)(O)[C@@H](CC)OC(=O)[C@@H]2C)C[C@@]1(C)OC ; strain or isolate: 20066 (clarithromycin-susceptible) ; result: 0.39 µg/mL
CC/C=C/CCNC(=O)O[C@H]1C(O[C@@H]2[C@@H](C)[C@H](O[C@H]3C[C@@](C)(OC)[C@@H](OC(C)=O)[C@H](C)O3)[C@@H](C)C(=O)O[C@H](CC)[C@@](C)(O)[C@H](O)[C@@H](C)/C(=N/OCCCC3CCCCC3)[C@H](C)CC2(C)O)O[C@H](C)C[C@@H]1N(C)C ; strain or isolate: 20075 ; result: 0.2 µg/mL
CC[C@H]1OC(=O)[C@H](C)[C@@H](O[C@H]2C[C@@](C)(OC)[C@@H](OC(C)=O)[C@H](C)O2)[C@H](C)[C@@H](O[C@@H]2O[C@H](C)C[C@H](N(C)C)[C@H]2OC(=O)NNCCCCCc2ccccc2)C(C)(O)C[C@@H](C)/C(=N\OCCCC2CCCCC2)[C@H](C)[C@@H](O)[C@]1(C)O ; strain or isolate: 20066 (clarithromycin-susceptible) ; result: 3.13 µg/mL
CN[C@@H]1[C@H](O[C@H]2[C@H](O[C@H]3[C@H](O)[C@@H](O)[C@H](N=C(N)N)[C@@H](O)[C@@H]3N=C(N)N)O[C@@H](C)[C@]2(O)C=O)O[C@@H](CO)[C@H](O)[C@H]1O ; strain or isolate: N-475 (HIV-) ; result: 0.25 µg/mL
CCCCCCCCCCCCCCN(C)C(=O)O[C@H]1C(O[C@@H]2[C@@H](C)[C@H](O[C@H]3C[C@@](C)(OC)[C@@H](OC(C)=O)[C@H](C)O3)[C@@H](C)C(=O)O[C@H](CC)[C@@](C)(O)[C@H](O)[C@@H](C)/C(=N/OCCCC3CCCCC3)[C@H](C)CC2(C)O)O[C@H](C)C[C@@H]1N(C)C ; strain or isolate: 20073 ; result: 0.1 µg/mL
CC[C@H]1OC(=O)[C@H](C)[C@@H](O[C@H]2C[C@@](C)(OC)[C@@H](OC(C)=O)[C@H](C)O2)[C@H](C)[C@@H](O[C@@H]2O[C@H](C)C[C@H](N(C)C)[C@H]2OC(=O)NNCCc2ccccc2)C(C)(O)C[C@@H](C)/C(=N\OCCCC2CCCCC2)[C@H](C)[C@@H](O)[C@]1(C)O ; strain or isolate: 20066 (clarithromycin-susceptible) ; result: 0.78 µg/mL
Clc1ccc2c(c1)nc1cc(Nc3ccccc3)c(=NC3CCCCC3)cc-1n2-c1ccccc1 ; strain or isolate: 98562 ; result: 1 µg/mL
CC[C@H]1OC(=O)[C@H](C)[C@@H](O[C@H]2C[C@@](C)(OC)[C@@H](OC(C)=O)[C@H](C)O2)[C@H](C)[C@@H](O[C@@H]2O[C@H](C)C[C@H](N(C)C)[C@H]2OC(=O)NN(C)C)C(C)(O)C[C@@H](C)/C(=N\OCCCC2CCCCC2)[C@H](C)[C@@H](O)[C@]1(C)O ; strain or isolate: 20066 (clarithromycin-susceptible) ; result: 1.56 µg/mL
CCCCCNC(=O)O[C@H]1C(O[C@@H]2[C@@H](C)[C@H](O[C@H]3C[C@@](C)(OC)[C@@H](OC(C)=O)[C@H](C)O3)[C@@H](C)C(=O)O[C@H](CC)[C@@](C)(O)[C@H](O)[C@@H](C)/C(=N/OCCCC3CCCCC3)[C@H](C)CC2(C)O)O[C@H](C)C[C@@H]1N(C)C ; strain or isolate: 20075 ; result: 0.2 µg/mL
NC[C@H]1O[C@H](O[C@H]2[C@H](O)[C@@H](O[C@H]3O[C@H](CO)[C@@H](O)[C@H](N)[C@H]3O)[C@H](N)C[C@@H]2N)[C@H](O)[C@@H](O)[C@@H]1O ; strain or isolate: CIPT 140310054 ; result: 10 µg/mL
CO[C@H]1/C=C/O[C@@]2(C)Oc3c(C)c(O)c4c(O)c(c(/C=N/N5CCN(C6CCCC6)CC5)c(O)c4c3C2=O)NC(=O)/C(C)=C\C=C\[C@H](C)[C@H](O)[C@@H](C)[C@@H](O)[C@@H](C)[C@H](OC(C)=O)[C@@H]1C ; strain or isolate: AMT ; result: 1 µg/mL
CC1(C)S[C@@H]2[C@H](NC(=O)C(C(=O)O)c3ccccc3)C(=O)N2[C@H]1C(=O)O ; strain or isolate: CIPT 140310030 ; result: >75 µg/mL
CCCCCCCCCCC(=O)O[C@H]1[C@H](C)OC(O[C@H]2[C@H](C)[C@@H](O[C@@H]3O[C@H](C)C[C@H](N(C)C)[C@H]3O)C(C)(O)C[C@@H](C)/C(=N\OCCCOc3ccccc3)[C@H](C)[C@@H](O)[C@](C)(O)[C@@H](CC)OC(=O)[C@@H]2C)C[C@@]1(C)OC ; strain or isolate: 20066 (clarithromycin-susceptible) ; result: 1.56 µg/mL
CC[C@H]1OC(=O)[C@H](C)[C@@H](O[C@H]2C[C@@](C)(OC)[C@@H](OC(C)=O)[C@H](C)O2)[C@H](C)[C@@H](OC2O[C@H](C)C[C@H](N(C)C)[C@H]2OC(N)=O)C(C)(O)C[C@@H](C)/C(=N\OCCCC2CCCCC2)[C@H](C)[C@@H](O)[C@]1(C)O ; strain or isolate: 20066 ; result: 3.13 µg/mL
C[C@@H]1CN(c2c(F)c(N)c3c(=O)c(C(=O)O)cn(C4CC4)c3c2F)C[C@H](C)N1 ; strain or isolate: N-752 (HIV-) ; result: 0.5 µg/mL